Compound potency records, mixed from different reports. Data source: NIAID ChemDB in PubChem.

All rows: growth or infection tests; species: Cryptococcus neoformans

ECn is the concentration giving n% inhibition of infection, replication or growth.

O=[N+]([O-])c1ccc(C=Nc2ccccc2O)cc1 ; measure: MIC ; strain: GM ; method: broth dilution ; value: 11.6 µg/mL
COc1ccc2c(c1)C(=O)/C(=C/c1ccc3c(c1)OCO3)CS2 ; measure: MIC ; strain: 25 ; value: 12.5 µg/mL
Oc1ccccc1N=Cc1ccccc1 ; measure: MIC ; strain: 5396 ; method: broth dilution ; value: 5.7 µg/mL
COc1ccc(/C=C2\COc3ccc(-c4ccccc4)cc3C2=O)cc1 ; measure: MIC ; strain: 25 ; value: 25 µg/mL
Oc1ccc(O)c(C=Nc2ccccc2O)c1 ; measure: MIC ; strain: 27JF ; method: broth dilution ; value: 11.3 µg/mL
O=C1/C(=C/c2ccc3c(c2)OCO3)CSc2ccccc21 ; measure: MIC ; strain: 93/V ; value: 6 µg/mL
Cc1nc(NCCCCNc2ccnc3cc(Cl)ccc23)nc(-c2ccccc2)c1C(=O)OC(C)C ; measure: MIC99 ; strain: ATCC 28957 ; value: 1.4 µg/mL
CN[C@H]1CC[C@@H](c2ccc(Cl)c(Cl)c2)c2ccccc21 ; measure: MFC ; strain: A2-102-5 ; method: broth dilution ; value: 8 µg/mL
COc1ccc2c(c1)C(=O)/C(=C/c1ccccc1OC)CO2 ; measure: MIC ; strain: 93/V ; value: 6 µg/mL
C[C@H]1[C@H](O)[C@@H](C)/C=C/C=C/C=C/C=C/C=C/C=C/C=C/[C@H](O[C@@H]2O[C@H](C)[C@@H](O)[C@H](N)[C@@H]2O)C[C@@H]2O[C@](O)(C[C@@H](O)C[C@@H](O)CC[C@H](O)[C@@H](O)C[C@@H](O)CC(=O)O[C@H]1C)C[C@H](O)[C@H]2C(=O)O ; measure: MFC99 ; strain: A25838 ; value: 0.25 µg/mL
COc1ccccc1/C=C1\CSc2ccccc2C1=O ; measure: MIC ; strain: 93/V ; value: 25 µg/mL
C[C@@H](c1ncncc1F)[C@](O)(Cn1cncn1)c1ccc(F)cc1F ; measure: MIC ; strain: B 32287 ; method: broth dilution ; value: 0.125 µg/mL
Oc1ccccc1N=Cc1ccc(O)c(O)c1O ; measure: MIC ; strain: WP ; method: broth dilution ; value: 11.3 µg/mL
CCC(C)n1ncn(-c2ccc(N3CCN(c4ccc(OC[C@H]5CO[C@](Cn6cncn6)(c6ccc(Cl)cc6Cl)O5)cc4)CC3)cc2)c1=O ; measure: MIC ; strain: Clinical isolate (IM 031633) ; method: broth dilution ; value: 0.25 µg/mL
CCOC(=O)c1cnc(NCCCCNc2ccnc3cc(Cl)ccc23)nc1C ; measure: MIC99 ; strain: WP ; value: 8 µg/mL
CC(C(O)(Cn1cncn1)c1ccc(F)cc1F)S(C)(=O)=O ; measure: EC50 ; strain: R718 (AZOLE-R) ; value: 3 µM
O=C1/C(=C/c2ccc(-c3ccccc3)cc2)CSc2ccccc21 ; measure: MIC ; strain: 25 ; value: 12.5 µg/mL
Oc1cccc(C=Nc2ccccc2O)c1 ; measure: MIC ; strain: ATCC 62066 ; method: broth dilution ; value: 1.4 µg/mL
CC[C@@H]([C@H](C)O)n1ncn(-c2ccc(N3CCN(c4ccc(OC[C@@H]5CO[C@@](Cn6cncn6)(c6ccc(F)cc6F)C5)cc4)CC3)cc2)c1=O ; measure: MIC ; strain: N34 ; value: 0.063 µg/mL
Cc1ccc(/C=C2\CCc3ccccc3C2=O)cc1 ; measure: MIC ; strain: 25 ; value: 50 µg/mL
Cn1nc(Cc2ccc(Cl)cc2)c2ccccc2c1=O ; measure: MFC ; strain: Clinical isolate (IM 042074) ; method: broth dilution ; value: 31.3 µg/mL
C[C@@H](n1cnc2cc(Cl)ccc2c1=O)[C@](O)(Cn1cncn1)c1ccc(F)cc1F ; measure: MIC ; strain: Isolate 163.99 ; value: 0.024 µg/mL

3 of the rows above, restated:

| smiles | measure | strain | method | value |
|---|---|---|---|---|
| CN[C@H]1CC[C@@H](c2ccc(Cl)c(Cl)c2)c2ccccc21 | MFC | A2-102-5 | broth dilution | 8 µg/mL |
| COc1ccc2c(c1)C(=O)/C(=C/c1ccc3c(c1)OCO3)CS2 | MIC | 25 |  | 12.5 µg/mL |
| Oc1ccccc1N=Cc1ccc(O)c(O)c1O | MIC | WP | broth dilution | 11.3 µg/mL |

An empty or dashed field is not shown. MIC50, MIC90 and the like: level of inhibition, or share of isolates inhibited. Rows are shuffled and stem from different studies.